Two sequences from PMC9867438 can be followed below.

For the data set, the target named is YhjC (MBP fusion) (UniProt A0A0F6B881). In words: EMSA. The note with it: 1-16 uM protein, 10 mM Tris-HCl pH 7.5, 100 mM NaCl, 1 mM DTT, 10% glycerol, room temperature 20-30 min, recombinant protein, residues 1-299, label: none (GelRed stain), probe letters rebuilt from the primers and the genome.

For “TTTACGTGAGGAACCGTTTTATCGTTTGATGACAGAGTAAGTATGGGTTTGGGGAGCAACGGAACAGTAAACGCCGTTAAACAGCTATTTTAAATGCTCATTAATTTATTAATCAATAAATTACAAATTTTCATTGAAGGCTCCCCCCTTACTGACGAATTCCGGCACCGTAAAGGAATAACGCTCATGCATATTGATATGTCCGCACTGTAATGGTGAAAATTACATAAGCAAGAGCGTTTTTTGAAAAATATTATATTTAATGTTTTGTAATATGCATTTTATTGAGGTAGTGTAACTATGAGAGTTTCTGGTAGTGCGTCATCCCAAGATATAATATCACGTATAAATTCAAAAAATATCAATAATAATGATTCAAATGAAGTCAAGAGAATTAAAG (double strand) [spvD promoter]”, the binding result is “binds”.

“CTCAACCACGTTGCAGCGGCATCTTTATGTAATCGTATAAAACTCACAGGCTTCCCCGGCTCGTTTTTATTTTCCTTACTTAAGCAGAGATCATGCCATTCTTCGCTCCGCATAACCGCGCGTTGTCGCACACCCTTTCGGATACGGATGGGTAAAAATGACTCGCCAGGCGGGTTATGCGAGTCATTTTTACTCGCTTTTTGCCGCCTGAAGCGGGTTAACTCGCTGCCCGACAAGGAATAGTTACCTGGCACGGAAGATGCAAGAGAGAGGATAAGATGAGCAACAGGAGAACGCAAAATGAAACGGAACAATAAATCAGCTATCGCGCTAATTGCCCTCTCTCTTTTGGCCCTGAGCTCCGGCGCCGCCTTCGCCGGGCATCACTGGGGCAACAATG (double strand) [zraP promoter]”: the binding result was “binds”.
